{"source": "patent US20200069664A1", "about": "“METHODS FOR TREATING INFECTION” (Salix Pharmaceuticals, Ltd, priority 2010, published 2020)", "test_system": "C difficile isolates", "test": "In vitro susceptibility of C difficile isolates (agar dilution for rifaximin, Etest for rifampin)", "settings": "rifaximin alone n = 11; rifampin n = 28"}
{"substance": "(2S,16Z,18E,20S,21S ,22R, 23R,24R,255,265,275,28E)-5,6,21,23,25 Pentahydroxy-27-methoxy-2,4,11,16,20,22,24,26-octamethyl-2,7-(epoxypentadeca-(1,11,13) trienimino) benzofuro (4,5-e) pyrido(1,2,-a) benzimidazole-1,15(2H)-dione,25-acetate [Rifaximin]", "values": [{"measurement": "Resistant isolates with genotype A+ B+ BT+ tcdC-del+, %", "value": "(0) %"}, {"measurement": "Resistant isolates with genotype A+ B+ BT+ tcdC-del−, %", "value": "(18) %"}, {"measurement": "Resistant isolates with genotype A+ B+ BT− tcdC-del+, %", "value": "(9) %"}, {"measurement": "Resistant isolates with genotype A+ B+ BT− tcdC-del−, %", "value": "(55) %"}, {"measurement": "Resistant isolates with genotype A− B− BT− tcdC-del−, %", "value": "(18) %"}]}
